The list shows a part of the results, in another mix than the full data. Some salts and complexes are drawn in separate pieces, as the source files them; their charges need not balance. Calls of active or inactive are those of the source. Cut-off read from the data, not from the text of the source: active = inhibition above about 50%; inactive = the rest.
target: Glycoprotein 42 (Epstein-Barr virus (strain AG876)) (UniProt Q1HVG2); test: EBV glycoprotein 42 binding blockers – biochemical, uHTS, fluorescence polarization, primary screen (AID 1085); details: Fluorescence polarization binding assay, mP read-out; active compounds read high; tested at 21.74 µM

By UniProt entry, the sequences of proteins in these tests, tags left out.
UniProt Q1HVG2, whole entry: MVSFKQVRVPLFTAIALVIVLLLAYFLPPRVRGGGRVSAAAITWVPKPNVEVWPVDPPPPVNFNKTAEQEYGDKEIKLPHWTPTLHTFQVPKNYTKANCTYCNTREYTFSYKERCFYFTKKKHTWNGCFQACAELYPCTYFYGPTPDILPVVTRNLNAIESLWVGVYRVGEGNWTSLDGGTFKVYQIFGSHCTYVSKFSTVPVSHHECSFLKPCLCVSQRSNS

Row | SMILES | inhibition
1 | COc1ccc(OP(C)(=O)Nc2ccc(Br)cc2)cc1 (stereo not drawn) | inactive: -4.82%
2 | CCN(CC)CC(O)COC(=O)C(O)(c1ccccc1)C1CCCCC1 (stereo not drawn) | inactive: -4.72%
3 | CCc1ccc(OP(C)(=O)Nc2cccnc2)cc1 (stereo not drawn) | inactive: -10.7%
4 | CP(=O)(Oc1ccccc1)N1CCOC1=O (stereo not drawn) | inactive: 2.51%
5 | O=C(OCCCN1CCCC1)C(O)(c1ccccc1)C1CCCCC1 (stereo not drawn) | inactive: -12.4%
6 | CP(=O)(Nc1ccc(Cl)cc1)Oc1ccc(F)cc1 (stereo not drawn) | inactive: -8.02%
7 | CC(C)(C)c1ccc(OP(C)(=O)O)cc1 | inactive: -12.7%
8 | COc1ccccc1OP(C)(=O)Nc1ccccc1Br (stereo not drawn) | inactive: -17.9%
9 | CN(C)C(=O)c1c([N+](=O)[O-])cc([N+](=O)[O-])cc1[N+](=O)[O-] | inactive: 0.77%
10 | CP(=O)(OC12CC3CC(CC(C3)C1)C2)OC12CC3CC(CC(C3)C1)C2 | inactive: -40.2%
11 | CCOC(=O)c1ccc(NP(C)(=O)Oc2ccc(Cl)cc2)cc1 (stereo not drawn) | inactive: -6.69%
12 | Cc1cc(C)cc(OP(C)(=O)Nc2cccc(C(F)(F)F)c2)c1 (stereo not drawn) | inactive: -6.57%
13 | COc1ccc(OP(C)(=O)Nc2ccccc2Br)cc1 (stereo not drawn) | inactive: -7.66%
14 | COc1ccccc1OP(C)(=O)Nc1ccc(C)c(C)c1 (stereo not drawn) | inactive: -15.3%
15 | Cc1nc2ccc3ccccc3c2o1.O=[N+]([O-])c1cc([N+](=O)[O-])c(O)c([N+](=O)[O-])c1 | inactive: 12.3%
16 | CP(=O)(OCCOc1ccccc1)OCCOc1ccccc1 | inactive: -0.77%
17 | CP(=O)(Nc1ccc(Cl)cc1Cl)Oc1ccccc1 (stereo not drawn) | inactive: -1.28%
18 | COc1ccccc1OP(C)(=O)Nc1ccc(Br)cc1 (stereo not drawn) | inactive: -8.63%
19 | CN(C)CCOC(=O)C(O)(c1ccccc1)C1CCCC1 (stereo not drawn) | inactive: -15.3%
20 | COc1ccc(OP(C)(=O)Nc2ccccn2)cc1 (stereo not drawn) | inactive: -17.5%
21 | O=[N+]([O-])c1cc([N+](=O)[O-])c(Nc2ccccn2)c([N+](=O)[O-])c1 | inactive: 0.57%

Row | SMILES | inhibition
22 | Cc1c(NP(C)(=O)Oc2ccc(C(C)C)cc2)c(=O)n(-c2ccccc2)n1C (stereo not drawn) | inactive: -19.3%
23 | CCc1ccc(OP(C)(=O)O)cc1 | inactive: 32.7%
24 | COc1ccccc1OP(C)(=O)Nc1ccc(C)cc1C (stereo not drawn) | inactive: -8.27%
25 | CP(=O)(Nc1ccccn1)Oc1ccccc1 (stereo not drawn) | inactive: 3.68%
26 | CC(C)c1ccc(OP(C)(=O)Nc2ccc(SC(F)(F)F)cc2)cc1 (stereo not drawn) | inactive: -1.08%
27 | CP(=O)(Nc1ccccc1F)Oc1ccccc1 (stereo not drawn) | inactive: 0.58%
28 | O=C(OCCN1CCN(CCOCc2ccccc2)CC1)C(O)(c1ccccc1)c1ccccc1 | inactive: -8.73%
29 | O=C(OC1CN2CCC1CC2)c1ccc([N+](=O)[O-])cc1 (stereo not drawn) | inactive: -9.73%
30 | COc1ccc2c(c1O)-c1c(O)c(OC)cc3c1[C@H](C2)[N+](C)(C)CC3.O=[N+]([O-])c1cc([N+](=O)[O-])c([O-])c([N+](=O)[O-])c1[O-] | inactive: 0.04%
31 | COc1ccc(OP(C)(=O)Nc2ccc(SC(F)(F)F)cc2)cc1 (stereo not drawn) | inactive: -9.09%
32 | CCOC(=O)c1ccc(NP(C)(=O)Oc2ccc(F)cc2)cc1 (stereo not drawn) | inactive: 19.9%
33 | CCN(CC)CCCOC(=O)C(O)(c1ccccc1)C1CCCCC1 (stereo not drawn) | inactive: -0.31%
34 | CCCCCOc1ccc(NP(C)(=O)Oc2ccc(Cl)cc2Cl)cc1 (stereo not drawn) | inactive: -11.7%
35 | CP(=O)(Nc1ccccc1)Oc1ccc(F)cc1 (stereo not drawn) | inactive: -8.04%
36 | COc1ccc(OP(C)(=O)Nc2cccc(Br)c2)cc1 (stereo not drawn) | inactive: -4.56%
37 | COc1ccc(NP(C)(=O)Oc2ccccc2OC)cc1 (stereo not drawn) | inactive: 5.09%
38 | CN(C)CCOC(=O)C(O)(c1ccccc1)C1CCCCC1 (stereo not drawn) | inactive: -17.9%
39 | O=[N+]([O-])c1cc([N+](=O)[O-])c(NCC2CCS(=O)(=O)C2)c([N+](=O)[O-])c1 (stereo not drawn) | inactive: 1.6%
40 | Cc1cc(-c2cccc3ccccc23)c(C)cn1.O=[N+]([O-])c1cc([N+](=O)[O-])c(O)c([N+](=O)[O-])c1 | inactive: -7.11%
41 | O=[N+]([O-])c1ccc(OP2(=O)COCCO2)cc1 (stereo not drawn) | inactive: -15.3%
42 | CP(=O)(Nc1ccc(SC(F)(F)F)cc1)Oc1ccc(F)cc1 (stereo not drawn) | inactive: -12.8%

Row | SMILES | inhibition
43 | CCOP(C)(=S)SCC(=O)NC(C)(CC)C(=O)O (stereo not drawn) | inactive: 8.83%
44 | CP(=O)(Nc1ccc2c(c1)OCCO2)Oc1ccccc1 (stereo not drawn) | inactive: -27.6%
45 | Cc1ccccc1NP(C)(=O)Nc1ccccc1C | inactive: -17.8%
46 | O=[N+]([O-])c1cc([N+](=O)[O-])c(-n2nnc3ccccc32)c([N+](=O)[O-])c1 | inactive: -2.14%
47 | Cc1nc2ccc3ccccc3c2s1.O=[N+]([O-])c1cc([N+](=O)[O-])c(O)c([N+](=O)[O-])c1 | inactive: -28.6%
48 | CCOC(=O)C(CC)C1=NC(C)(C)Cc2ccccc21.O=[N+]([O-])c1cc([N+](=O)[O-])c(O)c([N+](=O)[O-])c1 (stereo not drawn) | inactive: -15.5%
49 | O=[N+]([O-])c1cc([N+](=O)[O-])c(Nc2nnnn2CCO)c([N+](=O)[O-])c1 | inactive: -6.49%
50 | CN1CCCCC1COC(=O)C1(O)c2ccccc2CCc2ccccc21 (stereo not drawn) | inactive: -13.5%
51 | COc1ccccc1OP(C)(=O)Nc1c(C)cccc1C (stereo not drawn) | inactive: -12.2%
52 | CP(=O)(Nc1ccc(SC(F)(F)F)cc1)Oc1ccccc1 (stereo not drawn) | inactive: -0.39%
53 | CCCOc1ccc(NP(C)(=O)Oc2ccc(Cl)cc2)cc1 (stereo not drawn) | inactive: -6.73%
54 | O=C(O)c1cccc(Nc2c([N+](=O)[O-])cc([N+](=O)[O-])cc2[N+](=O)[O-])c1 | inactive: -25.1%
55 | CC1=NCCc2c1[nH]c1ccccc21.O=[N+]([O-])c1cc([N+](=O)[O-])c(O)c([N+](=O)[O-])c1 | inactive: -7.19%
56 | COc1ccccc1OP(C)(=O)Nc1cccc(Br)c1 (stereo not drawn) | inactive: -10.9%
57 | Cc1cc(C)cc(OP(C)(=O)Nc2ccc(C)cc2C)c1 (stereo not drawn) | inactive: -6.38%
58 | CCOC(=O)c1ccc(NP(C)(=O)Oc2cc(C)cc(C)c2)cc1 (stereo not drawn) | inactive: 0.46%
59 | CP(=O)(Nc1cccc(Br)c1)Oc1ccccc1 (stereo not drawn) | inactive: -2.98%
60 | Cc1cc(C)cc(OP(C)(=O)Nc2ccccn2)c1 (stereo not drawn) | inactive: -7.84%
61 | Cc1ccc(C)c(NP(C)(=O)Oc2ccccc2)c1 (stereo not drawn) | inactive: -21%
62 | CCN(CC)CCCOC(=O)C(O)(c1ccccc1)c1ccccc1 | inactive: -6.52%
63 | Cc1cccc(C)c1OP(C)(N)=O (stereo not drawn) | inactive: -13.5%

Row | SMILES | inhibition
64 | CC(C)(C)c1ccc(OP(C)(=O)Nc2ccc(SC(F)(F)F)cc2)cc1 (stereo not drawn) | inactive: 4.31%
65 | O=[N+]([O-])c1ccc2c(c1)C=Nc1ccccc1O2 | inactive: -10.3%
66 | CCOC(=O)c1ccc(NP(C)(=O)Oc2ccccc2)cc1 (stereo not drawn) | inactive: -11.1%
67 | Cc1ccc(NP(C)(=O)Oc2ccccc2)c(C)c1 (stereo not drawn) | inactive: 3.76%
68 | COc1ccccc1OP(C)(=O)Nc1ccc(C)cc1 (stereo not drawn) | inactive: -33.4%
69 | COc1ccc(OP(C)(=O)Nc2cccc(F)c2)cc1 (stereo not drawn) | inactive: -13.6%
70 | COc1ccccc1OP(C)(=O)Nc1cc(Cl)ccc1C (stereo not drawn) | inactive: 1.08%
71 | Cc1cc(C)cc(OP(C)(N)=O)c1 (stereo not drawn) | inactive: -6.86%
72 | CP(=S)(Nn1cnnc1)Oc1ccccc1 (stereo not drawn) | inactive: -4.81%
73 | COc1ccccc1OP(C)(=O)Nc1ccccc1 (stereo not drawn) | inactive: -5.19%
74 | CP(=O)(Nc1ccccc1Br)Oc1ccccc1 (stereo not drawn) | inactive: 0.77%
75 | CP(=O)(Oc1ccccc1)OC(c1ccccc1)C(F)(F)F (stereo not drawn) | inactive: -4.17%
76 | CP(=O)(Nc1ccc(SC(F)(F)F)cc1)Oc1ccc(Cl)cc1 (stereo not drawn) | inactive: -4.13%
77 | Cc1cccc(C)c1OP(C)(=O)Nc1ccc(SC(F)(F)F)cc1 (stereo not drawn) | inactive: -10.2%
78 | Cc1cc(C)cc(OP(C)(=O)Nc2ccc(SC(F)(F)F)cc2)c1 (stereo not drawn) | inactive: -1.25%
79 | CCc1ccc(OP(C)(=O)N2CCN(c3ccc([N+](=O)[O-])cc3)CC2)cc1 (stereo not drawn) | inactive: -5.06%
80 | CP(=O)(NC(=O)Nc1ccccc1)Oc1ccccc1 (stereo not drawn) | inactive: -23.6%
81 | CCOP(C)(=S)SCC(=O)NC(C)C(=O)O (stereo not drawn) | inactive: -26.9%
82 | CCOC(=O)c1ccc(NP(C)(=O)Oc2ccc(OC)cc2)cc1 (stereo not drawn) | inactive: -7.33%
83 | CP(=O)(Nc1ccccn1)Oc1ccc(Cl)cc1 (stereo not drawn) | inactive: -12.7%

Source: PubChem BioAssay AID1085 (Emory University Molecular Libraries Screening Center, 2008)
